## Deep mutational scan of the Zika virus protease

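Mutant virus pools were grown in human Huh-7.5 cells. The effect is the change in frequency of a mutant, normalised to wild type, as a mean of three replicate libraries (two for positions 207-308).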

The scanned region of Zika virus MR766 is shown below (positions 1-308): NS2B is 2-131, NS3 begins at position 132.
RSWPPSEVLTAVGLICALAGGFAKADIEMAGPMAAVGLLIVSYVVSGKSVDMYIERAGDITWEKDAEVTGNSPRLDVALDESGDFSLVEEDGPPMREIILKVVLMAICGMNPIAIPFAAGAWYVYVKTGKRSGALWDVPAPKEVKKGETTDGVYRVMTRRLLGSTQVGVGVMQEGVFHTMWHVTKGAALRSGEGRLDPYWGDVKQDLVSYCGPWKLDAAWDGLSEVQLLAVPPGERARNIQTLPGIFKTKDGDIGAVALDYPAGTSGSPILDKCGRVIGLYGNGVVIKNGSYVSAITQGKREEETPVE

Values are log2 effects on growth: 0 is wild type, lower means poorer growth.
Each entry names the wild-type residue, its position and the residue put in its place.
This list holds changes to alanine only.
Values above 0 are not proof of better growth: six high scorers were tested one by one, five grew less well than wild type and one about as well.
Position 1 still belongs to NS2A. In the paper, -1 or higher counts as tolerated.
Positions 1-103, 104-206 and 207-308 were made and measured as separate libraries.

Y199A read -1.22. For W200A the result was -7.17. For G201A the result was -6.99. D202A read -2.58. For V203A the result was -7.76.

K204A gave -7.77. For Q205A the result was -7.24. For D206A the result was -7.62. L207A read -7.63. For V208A the result was -3.03.

For S209A the result was -1.09. With Y210A the assay gave -7.29. C211A gave 0.68. G212A gave -7.74. P213A gave -1.12.

For W214A the result was -8.19. With K215A the assay gave -4.72. L216A gave -6.67. With D217A the assay gave -4.53. With W220A the assay gave -6.48.

D221A read -6.44. G222A read -6.75. With L223A the assay gave -0.05. S224A read -4.25. E225A gave -4.38.

V226A read -5.35. Q227A gave -6.52. With L228A the assay gave -3.35. L229A read -2.42. V231A read -3.39.

With P232A the assay gave 0.56. With P233A the assay gave -6.25. G234A gave -1.46. With E235A the assay gave -0.69. R236A gave 1.52.

R238A gave -0.83. N239A gave -3.70. With I240A the assay gave -0.68. Q241A gave -4.38. T242A read -5.03.

For L243A the result was -1.81. With P244A the assay gave -5.40. For G245A the result was -6.46. I246A read -4.24. F247A gave -6.65.

With K248A the assay gave -2.53. For T249A the result was -6.22. K250A read -2.56. With D251A the assay gave -3.64. G252A gave -1.53.

With D253A the assay gave -5.98. With I254A the assay gave -6.50. G255A gave -7.37. With V257A the assay gave -5.90. L259A read -6.09.

For D260A the result was -5.83. Y261A gave -3.03. P262A read -5.41. G264A read -6.24. T265A gave -4.98.

For S266A the result was -5.60.

A selection of 6 entries from above:

{"substitution": "D206A", "log2 effect": -7.62}
{"substitution": "D253A", "log2 effect": -5.98}
{"substitution": "D202A", "log2 effect": -2.58}
{"substitution": "Y199A", "log2 effect": -1.22}
{"substitution": "P213A", "log2 effect": -1.12}
{"substitution": "I246A", "log2 effect": -4.24}

Data from the supplement of Ni et al. 2025, doi:10.1038/s41467-025-63602-z.